System: amidohydrolase
Experiment: Enzyme characterization with heat-treated cell-free extract
Type: biochemical, Klebsiella oxytoca PRS1K17 (DSM 11623)
Conditions: substrate concentration 32 mM
Method: A heat-treated cell-free extract was employed for characterizing the amidase. Cells of Klebsiella oxytoca PRS1K17 (DSM 11623) (OD650=160) were disrupted by passing through a French press at 19000 psi (1309 bar). Benzonase (1 μl×30 ml extract^−1) was added, and the extract was then centrifuged for 1 hour at 20000×g. The supernatant (approx. 20 mg×ml^−1 protein) was heated for 10 minutes at 70° C. and the precipitated protein was then removed by centrifugation. The supernatant (approx. 2.0 mg×ml^−1) was concentrated to 5.0 mg×ml^−1 protein and then stored at −20° C. The heat treatment removed approx. 90% of undesired protein. Up to a protein concentration of 0.5 mg×ml^−1, the reaction rate was in direct proportion to the protein concentration. A protein concentration of 0.2 mg×ml^−1 was therefore routinely employed in the tests. To determine the pH optimum, the concentration of (R,S)-2,2-HTFMPA (substrate) was 0.5% (32 mM) and the temperature was 40° C. The buffers listed in Table 4 were employed in the test.
The effect of the temperature on the reaction was determined in 100 mM CAPS buffer (pH 10.0) at a substrate concentration of 0.5% (32 mM). The effect of the substrate concentration was determined at 60° C. in 100 mM CAPS buffer (pH 10.0), and the effect of methanol at 40 and 60° C. at a substrate concentration of 1% (64 mM) in 100 mM CAPS buffer (pH 10.0). […]

B1: amidohydrolase: (R)-stereospecific amidohydrolase from Klebsiella oxytoca PRS1/PRS1K17, SEQ ID No. 2; tested as heat-treated cell-free extract (protein, listed as Klebsiella oxytoca)
chain: MKWLEESIMAKRGVGAGRKPVTHHLTEEMQKEFHYTIGPYSTPVLTIEPGDRIIVDTRDAFEGAINSEQDIPSQLLKMPFLNPQNGPIMVNGAEKGDVLAVYIESMLPRGVDPYGICAMIPHFGGLTGTDLTAMLNDPLPEKVRMIKLDSEKVYWSKRHTLPYKPHIGTLSVSPEIDSINSLTPDNHGGNMDVPDIGPGSITYPLVRAPGGRLFIGDAHACQGDGEICGTAVEFASITTIKVDLIKNWQLSWPRMENAENIMSIGSARPLEDATRIAYRDLIYWLVEDFGFEQWDAYMLLSQCGKVRLGNMVDPKYTVGAMLNKNLLV
Question: Which results are given for B1?
Answer: temperature optimum (100 mM CAPS buffer pH 10): 70 °C; pH optimum (100 mM CAPS buffer, 40° C.): 10±0.5

From patent US7553652B2, “Process for the preparation of (S)- or (R)-3,3,3-trifluoro-2-hydroxy-2-methylpropionic acid” (Lonza AG, priority 1996, dated 2009)
